Source: patent US20200147037A1, “NEW TREATMENT OF BRAIN CANCER” (priority 2017, published 2020)

Tested on: human lung cancer cell line A549
Assay: Chicken embryo CAM assay, PLTX from different corals
Conditions: Palytoxin at 1 nM; for Tumor weight: 100 μl onto the tumor E11, E13, E15, E17, weighed E18; for Metastasis (ratio of QPCR Alu signal compared to group PLTX from Palythoa Heliodiscus): lower CAM

Substance	Tumor weight	Metastasis (ratio of QPCR Alu signal compared to group PLTX from Palythoa Heliodiscus)
palytoxin [Palythoa Heliodiscus]	16.63 mg	1
palytoxin [Palythoa aff. Clavata]	17.49 mg	3.27
palytoxin [Palythoa sp. Pc001]	18.16 mg	1.53
